Measured values from several laboratories, pooled; numbers as filed in NIAID ChemDB.

Shared fields: whole-cell or culture tests; species: Mycobacterium tuberculosis

ECn: concentration that inhibits the pathogen or its effect by n%. Percent inhibition refers to the dose given; in toxicity tests it is the harm to the cells. Blank or dashed fields: not listed here. Lines come from different laboratories, so protocols vary. Two numbers with a dash give a range or band. MIC bound: limit read from a one-dose screen. A number after MIC or MFC names an inhibition level or a share of isolates.

compound	conditions	strain or isolate	tested at	measure	changes	read by	value
CCOC(=O)c1c(NC(=O)c2c(F)c(F)c(F)c(F)c2F)sc2c1CCN(CC)C2	-	H37Rv	-	MIC	Rifampicin-resistant D94N	resazurin	0.37 µM
Cc1cc(C2=NOC(c3ccc(F)cc3)C2)ccc1O	-	INH-resistant M. tuberculosis	-	MIC	-	-	2.92 µM
O=C(NCc1ccc(N2CCN(Cc3ccccc3)CC2)nc1)c1ccc([N+](=O)[O-])o1	-	UT30	-	MIC	-	-	0.012 µg/mL
Cc1cc(C2=NOC(c3ccc(Br)cc3)C2)ccc1O	-	H37R (MTB)	-	MIC	-	-	0.62 µM
CC(C)Oc1ccc(-c2ccc(Nc3ncnc4ccccc34)cc2)cc1	-	H37Rv	-	MIC50	-	luminescence	>10 µM
Cc1cc(C2=NOC(c3ccccc3)C2)ccc1O	-	H37R (MTB)	-	MIC	-	-	>6.25 µM
Cc1onc(-c2ccccc2)c1C(=O)N[C@@H]1C(=O)N2[C@@H]1SC(C)(C)[C@@H]2C(=O)O	21 d	Gordon	10 µg/mL	inhibition	-	colony count	99%
CC(Oc1ccccc1)C(=O)N/N=C1\CCOc2ccccc21	-	H37Rv	12.5 µg/mL	inhibition	-	-	50–64%
O=C(Nc1sc(-c2ccc(OCc3c(Cl)cccc3Cl)cc2)cc1C(=O)O)c1ccc(Cl)cc1	-	H37Rv	-	EC50	-	resazurin	53.81 µM
CN(C)/C=C/c1ccnc2c1C(=O)c1ccccc1C2=O	-	H37Rv	-	MIC	-	-	1.56 µg/mL
COc1ccc(CCNc2ncnc3ccccc23)cc1	-	H37Rv	-	MIC50	-	luminescence	>10 µM
COC(=O)c1ccc2c(=O)c3ccccc3oc2c1C(=O)OC	-	H37Rv	-	MIC	-	-	20 µg/mL
CN1CCCCC(C(O)(c2ccccc2)c2ccccc2)C1=O	-	H37Rv	-	MIC bound	-	BACTEC	>12.5 µg/mL
Cc1c2c(nc3ccccc13)C(=O)c1cccnc1C2=O	-	H37Rv	-	MIC	-	-	6.25 µg/mL
COc1ccc2c(c1)[n+]([O-])c(/C(C)=N/NC(=O)c1ccccc1O)c(C)[n+]2[O-]	-	INH-r	-	MIC	-	-	12.5 µg/mL
O[C@]12C=C(Cc3cccc4cnccc34)[C@@H]3CCN(CCCC/C=C\CC1)C[C@@]31C[C@@H]3CCCCCCN3C12	-	H37Rv	-	MIC	-	-	6.4 µg/mL
CCCCNC(=O)c1cc(-c2ccccc2)sc1N	-	H37Rv	-	MIC	-	resazurin	>300 µM
CCCCNc1sc(-c2ccc(OCc3c(Cl)cccc3Cl)cc2)cc1C(=O)O	-	H37Rv	-	MIC	-	resazurin	7.7 µM
CCCCCCCCCCCCCCCC1=NN(c2ccccc2)C(=O)C1NC(=O)O	-	H37Rv	12.8 µg/mL	inhibition	-	BACTEC	17%
O=C(Oc1ccc(Cl)cc1C(=O)Nc1ccc(Cl)c(Cl)c1)c1ccccc1	21 d	Praha 1	-	MIC	-	broth dilution	0.5 µM
COc1cc(C2CC(c3ccc(O)c(C)c3)=NO2)cc(OC)c1OC	-	INH-resistant M. tuberculosis	-	MIC	-	-	>6.25 µM
O=C(O)c1nc(NCCc2ccc(OC(F)(F)F)cc2)c2ccc(F)cc2n1	-	H37Rv	-	MIC50	-	luminescence	>20 µM
CCCCCNc1sc(-c2ccc(OCc3c(Cl)cccc3Cl)cc2)cc1C(=O)O	-	H37Rv	-	MIC	-	resazurin	15.1 µM
CO[C@H]1/C=C/O[C@@]2(C)Oc3c(C)c(O)c4c(O)c(c(/C=N/N5CCN(C)CC5)c(O)c4c3C2=O)NC(=O)/C(C)=C\C=C\[C@H](C)[C@H](O)[C@@H](C)[C@@H](O)[C@@H](C)[C@H](OC(C)=O)[C@@H]1C	-	H37Rv	-	MIC	INH resistant Y155* truncation	resazurin	0.012 µM
O=C(Nc1sc(-c2ccc(OCc3c(Cl)cccc3Cl)cc2)cc1C(=O)O)c1ccccn1	-	H37Rv	-	MIC	-	resazurin	59.2 µM
Fc1ccc2c(Nc3ccc(OC4CCN(c5ccc(C(F)(F)F)cc5)CC4)cc3)ncnc2c1	-	H37Rv	-	MIC50	-	luminescence	>10 µM
O=C(O)c1cc(-c2ccc(OCc3c(Cl)cccc3Cl)cc2)sc1NCc1ccccc1Cl	-	H37Rv	-	EC50	-	resazurin	28.05 µM
Cc1nc(Nc2ccccc2Oc2ccc(C(F)(F)F)cc2)c2ccc(F)cc2n1	-	H37Rv	-	MIC50	-	luminescence	>50 µM
O=C(NCc1ccc(N2CCN(Cc3ccccc3)CC2)cc1)c1ccc([N+](=O)[O-])o1	-	UT30	-	MIC	-	-	0.006 µg/mL
Fc1ccc2c(Nc3ccc(N4CCC5(CC4)CCN(c4ccc(C(F)(F)F)cc4)CC5)cc3)ncnc2c1	-	H37Rv	-	MIC50	-	luminescence	>50 µM
Cc1cnc(CC2=C[C@@]3(O)CC/C=C\CCCCN4CC[C@@H]2[C@]2(C[C@@H]5CCCCCCN5C23)C4)cn1	-	H37Rv	-	MIC	-	-	14.4 µg/mL
CC1CCCCN1.CC1CCCCN1C(=S)S	-	INH-r	-	MIC	-	-	1.6 µg/mL
Cc1ccc2nc(Nc3ncnc4ccccc34)sc2c1	-	H37Rv	-	MIC50	-	luminescence	>20 µM
Cc1onc(-c2ccccc2Cl)c1C(=O)N[C@@H]1C(=O)N2[C@@H]1SC(C)(C)[C@@H]2C(=O)O	21 d	Gordon	2.5 µg/mL	inhibition	-	colony count	100%
CCOC(=O)c1cc(-c2ccccc2)sc1NC(=O)c1ccccc1	-	H37Rv	-	MIC	-	resazurin	>200 µM
CC(C)COC(=O)N1N=NC2C3CC(=O)C(O3)C21	-	H37Rv	-	MIC bound	-	BACTEC	>12.5 µg/mL
FC(F)(F)Oc1ccc(CCNc2nc(C3CC3)nc3ccccc23)cc1	-	H37Rv	-	MIC50	-	luminescence	9.4 µM
NNC(=O)c1ccncc1	-	H37Rv	-	MIC	Rifampicin-resistant S522L	resazurin	0.18 µM
CO[C@H]1/C=C/O[C@@]2(C)Oc3c(C)c(O)c4c(c3C2=O)C(=O)c2cnc(nc2C4=O)/C(C)=C\C=C\[C@H](C)[C@H](O)[C@@H](C)[C@@H](O)[C@@H](C)[C@H](OC(C)=O)[C@@H]1C	-	H37Rv	-	MIC bound	-	BACTEC	≤12.5 µg/mL
CN(C)CCc1c2c(nc3ccccc13)C(=O)c1ccccc1C2=O	-	H37Rv	-	MIC	-	-	0.78 µg/mL
CN[C@@H]1[C@@H](O)[C@@H](O[C@@H]2[C@@H](O)[C@H](O[C@H]3O[C@H](CN)CC[C@H]3N)[C@@H](N)C[C@H]2N)OC[C@]1(C)O	-	H37Rv	-	MIC	-	-	>32 µg/mL
O=[N+]([O-])c1ccc(C2=NOC(c3ccc(N4CCN(Cc5ccccc5)CC4)cc3)C2)o1	-	UT30	-	MIC	-	-	0.003 µg/mL
O=C(Oc1ccc(Cl)cc1C(=O)Nc1ccc(C(F)(F)F)cc1)c1ccccc1	14 d	9449/2006	-	MIC	-	broth dilution	0.5 µM
COC(=O)C1(C)CCCC2(C)c3cc(O)c(C(C)C)cc3CCC12	-	H37Rv	12.5 µg/mL	inhibition	-	BACTEC	56%
FC(F)(F)c1ccccc1CCNc1ncnc2ccccc12	-	H37Rv	-	MIC50	-	luminescence	>50 µM
O=C(O)c1ccccc1O	-	7800	40 µM	inhibition	-	-	4%
FC(F)(F)c1cccc(Oc2ccc(CNc3ncnc4ccccc34)cc2)c1	-	H37Rv	-	MIC50	-	luminescence	>20 µM
CCOC(=O)c1cc(-c2ccc(OCc3c(Cl)cccc3Cl)cc2)sc1NC(=O)C(=O)O	-	H37Rv	-	EC50	-	resazurin	31.35 µM
Cc1cc(=O)n(-c2ccc(S(=O)(=O)N=C(N)N)cc2)c(C)c1C(=O)O	-	H37Rv	-	MIC bound	-	BACTEC	>12.5 µg/mL
CC(C)(C)c1ccc(CCNc2ncnc3ccsc23)cc1	-	H37Rv	-	MIC50	-	luminescence	>10 µM
O=C(Oc1ccc(Br)cc1C(=O)Nc1ccc(C(F)(F)F)cc1)c1ccccc1	21 d	Praha 131	-	MIC	-	broth dilution	1 µM
COC(=O)C(CO)NC(=O)C(CSC(c1ccccc1)(c1ccccc1)c1ccccc1)NC(=O)OCc1ccccc1	-	H37Rv	-	MIC bound	-	BACTEC	>12.8 µg/mL
Cc1c2c(nc3ccccc13)C(=O)c1ccccc1C2=O	-	H37Rv	-	MIC	-	-	1.56 µg/mL
Cn1c(-c2ccc(/C=N/NC(=O)C(=O)N/N=C/c3ccc(-c4c[n+]5ccsc5n4C)cc3)cc2)c[n+]2ccsc12.[Br-].[Br-]	-	H37Rv	12.5 µg/mL	inhibition	-	BACTEC	22%
Fc1ccc2c(NCCc3ccccc3)ncnc2c1	-	H37Rv	-	MIC50	-	luminescence	>50 µM
CCCCCCNc1sc(-c2ccc(OCc3c(Cl)cccc3Cl)cc2)cc1C(=O)O	-	H37Rv	-	MIC	-	resazurin	58.5 µM
CC(=O)c1c(O)c(C)c(O)c2c1OC1=Cc3c(c(C)nn3C)C(=O)C12C	-	H37Rv	12.5 µg/mL	inhibition	-	BACTEC	-20%
FC(F)(F)c1cccc(Oc2ccc(CNc3ncnc4ccsc34)cc2)c1	-	H37Rv	-	MIC50	-	luminescence	>50 µM
O=C1c2cccnc2-c2nccc3c2c1nc1ccccc13	-	H37Rv	-	MIC	-	-	0.1 µg/mL
CC(C)=CCNc1sc(-c2ccc(OCc3c(Cl)cccc3Cl)cc2)cc1C(=O)O	-	H37Rv	-	EC50	-	resazurin	>128 µM
FC(F)(F)c1ccc(Oc2ccc(Nc3ncnc4cc(Br)ccc34)cc2)cc1	-	H37Rv	-	MIC50	-	luminescence	>20 µM
O=C(Oc1ccc(Cl)cc1C(=O)Nc1cccc(Cl)c1)c1ccccc1	21 d	331/88 (H37Rv)	-	MIC	-	broth dilution	2 µM
NNC(=O)c1ccc(-c2ccc[nH]2)[nH]1	-	H37Rv	12.5 µg/mL	inhibition	-	BACTEC	34%
Cc1cc(C2=NOC(c3ccc(N(C)C)cc3)C2)ccc1O	-	INH-resistant M. tuberculosis	-	MIC	-	-	>6.25 µM
CS(=O)(=O)OCCCCCCCCCCCC1C=CCC1	-	H37Rv	-	MIC bound	-	BACTEC	>12.5 µg/mL
COc1ccc(C2CC(c3ccc(O)c(C)c3)=NO2)cc1OC	-	INH-resistant M. tuberculosis	-	MIC	-	-	>6.25 µM
FC(F)(F)c1ccc(N2CCC3(CCN(c4ccc(Nc5ncnc6cc[nH]c56)cc4)CC3)CC2)cc1	-	H37Rv	-	MIC50	-	luminescence	>50 µM
Nc1ccc(C(=O)Nc2cccc(C(=O)Nc3ccc4c(O)c(N=Nc5ccc(N=Nc6ccc(S(=O)(=O)O)cc6)cc5)c(S(=O)(=O)O)cc4c3)c2)cc1	-	H37Rv	-	MIC bound	-	BACTEC	>12.5 µg/mL
Clc1ccc(CCNc2ncnc3ccsc23)cc1	-	H37Rv	-	MIC50	-	luminescence	>50 µM
O[C@]12C=C(Cc3cc4cc(F)ccc4[nH]3)[C@@H]3CCN(CCCC/C=C\CC1)C[C@@]31C[C@@H]3CCCCCCN3C12	-	H37Rv	-	MIC	-	-	1.7 µg/mL
O=C(Oc1cc(Cl)ccc1C(=O)Nc1ccc(Cl)cc1)c1ccccc1	21 d	331/88 (H37Rv)	-	MIC	-	broth dilution	4 µM
COC(=O)c1cccc2c(=O)c3ccccc3oc12	-	H37Rv	-	MIC	-	-	>32 µg/mL
CNC(=O)c1ccc(NC(=O)Nc2ccc(C3=NCCN3)cc2)cc1NC(=O)Nc1cccc(C2=NCCN2)c1	-	H37Rv	-	MIC	-	BACTEC	6.25 µg/mL
CO[C@H]1/C=C/O[C@@]2(C)Oc3c(C)c(O)c4c(O)c(c(/C=N/N5CCN(C6CCCC6)CC5)c(O)c4c3C2=O)NC(=O)/C(C)=C\C=C\[C@H](C)[C@H](O)[C@@H](C)[C@@H](O)[C@@H](C)[C@H](OC(C)=O)[C@@H]1C	-	H37Rv	-	MIC	-	-	0.06 µg/mL
NC(=O)C(=Cn1c(=S)[nH]c2ccc([N+](=O)[O-])cc21)C(N)=O	-	H37Rv	6.25 µg/mL	inhibition	-	resazurin	-58%
FC(F)(F)c1cccnc1Oc1ccc(Nc2ncnc3ccccc23)cc1	-	H37Rv	-	MIC50	-	luminescence	>20 µM
COc1ccc(/C=C2\N=C(c3ccc(N)cc3)OC2=O)cc1OC	-	H37Rv	-	MIC bound	-	BACTEC	>12.5 µg/mL
CCOC(=O)c1c(NC(C)=O)sc2c1CCN(CC)C2	-	H37Rv	-	MIC	-	resazurin	>300 µM
O=C(NC(=S)Nc1cccc(Cl)c1)c1ccc(Cl)cc1Cl	-	H37Rv	12.5 µg/mL	inhibition	-	BACTEC	3%
C=C[C@@H](O)C#CC#CC/C=C\CCCCCCC	-	H37Ra	-	EC50	-	resazurin	15.3 µM
O=c1[nH]cc(N=Nc2ccc(S(=O)(=O)Nc3ccccn3)cc2)cc1O	-	H37Rv	-	MIC	-	BACTEC	≥12.5 µg/mL
Fc1ccc2c(Nc3ccc(N4CCCN(c5ccc(C(F)(F)F)cc5)CC4)cc3)ncnc2c1	-	H37Rv	-	MIC50	-	luminescence	>20 µM

For reference, 7 entries again:

compound,conditions,strain or isolate,tested at,measure,changes,read by,value
CS(=O)(=O)OCCCCCCCCCCCC1C=CCC1,-,H37Rv,-,MIC bound,-,BACTEC,>12.5 µg/mL
NNC(=O)c1ccncc1,-,H37Rv,-,MIC,Rifampicin-resistant S522L,resazurin,0.18 µM
NC(=O)C(=Cn1c(=S)[nH]c2ccc([N+](=O)[O-])cc21)C(N)=O,-,H37Rv,6.25 µg/mL,inhibition,-,resazurin,-58%
CC(Oc1ccccc1)C(=O)N/N=C1\CCOc2ccccc21,-,H37Rv,12.5 µg/mL,inhibition,-,-,50–64%
COc1ccc2c(c1)[n+]([O-])c(/C(C)=N/NC(=O)c1ccccc1O)c(C)[n+]2[O-],-,INH-r,-,MIC,-,-,12.5 µg/mL
O=C(O)c1nc(NCCc2ccc(OC(F)(F)F)cc2)c2ccc(F)cc2n1,-,H37Rv,-,MIC50,-,luminescence,>20 µM
O=C(Nc1sc(-c2ccc(OCc3c(Cl)cccc3Cl)cc2)cc1C(=O)O)c1ccccn1,-,H37Rv,-,MIC,-,resazurin,59.2 µM